Patent US20250025383A1, “EMOLLIENT COMPOSITION IN EMULSION FORM” (PIERRE FABRE MEDICAMENT, priority 2018, published 2025)

Assay: Evaluation of the compatibility of the preservatives in view of other aspects (odour, aspect, potential irritant or allergenic)

Substance | Comments/other aspects (preservative alone at 0.25% in emulsion) | Comments/other aspects (preservative alone at 3% in emulsion)
Benzalkonium chloride | allergenic | –
macrogol lauryl ether [Thesit (macrogol lauryl ether)] | – | (NB: very fluid)
